Data as given in PubChem BioAssay AID624099 (ICCB-Longwood, 2012).
Screen: 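Host factors E2 relies on to silence an HPV18 LCR reporter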 (primary screen). Cell system: human C33A cervical carcinoma cells (HPV-negative) stably expressing BPV1 E2 and an HPV18 LCR luciferase reporter. Knock-down reagent: siRNA pool against human genes, 40 nM. Time to read-out: 72 h. Read-out: 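HPV18 LCR reporter light per well, converted to plate-wise z-scores that exclude control wells, and averaged over triplicate plates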. Scale: mean z-score and z-score: higher = stronger reporter signal, weaker E2 silencing. Active means: 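Hit if mean z-score reaches 2 and two or more of three replicate z-scores also reach 2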.
Shown is an unselected part of about 21,000 reagents tested. Over the whole deposit, 497 (2.4%) are marked active. 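Higher z means weaker E2 silencing; only reporter increases were scored, and knock-downs that hurt cell survival may mask genuine repressor factors.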 A number with no mark means an inactive call. The numbers tell different reagents against one gene apart.

ZFP28
- mean z-score: 0.9
- z-score, replicate A: 1.08
- z-score, replicate B: 0.82
- z-score, replicate C: 0.82

XPO4
- mean z-score: 0.19
- z-score, replicate A: -0.21
- z-score, replicate B: 0.32
- z-score, replicate C: 0.46

AK9 #1
- mean z-score: -1.63
- z-score, replicate A: -1.46
- z-score, replicate B: -1.94
- z-score, replicate C: -1.48

AK9 #2
- mean z-score: 0
- z-score, replicate A: 0.33
- z-score, replicate B: -0.03
- z-score, replicate C: -0.31

STAT6
- mean z-score: 0.6
- z-score, replicate A: 0.66
- z-score, replicate B: 0.36
- z-score, replicate C: 0.78

SIRPA
- mean z-score: 0.82
- z-score, replicate A: 0.46
- z-score, replicate B: 0.9
- z-score, replicate C: 1.11

RHEB
- mean z-score: -0.13
- z-score, replicate A: -0.28
- z-score, replicate B: -0.33
- z-score, replicate C: 0.23

BTLA
- mean z-score: -1.7
- z-score, replicate A: -1.31
- z-score, replicate B: -2.16
- z-score, replicate C: -1.64

RNF133
- mean z-score: -0.6
- z-score, replicate A: -0.18
- z-score, replicate B: -0.85
- z-score, replicate C: -0.77

H4C9
- mean z-score: 0.14
- z-score, replicate A: -0.11
- z-score, replicate B: 0.09
- z-score, replicate C: 0.45

DDIT4
- mean z-score: -1.8
- z-score, replicate A: -1.76
- z-score, replicate B: -1.8
- z-score, replicate C: -1.85

KCNIP3
- mean z-score: -1.65
- z-score, replicate A: -1.57
- z-score, replicate B: -1.64
- z-score, replicate C: -1.74

SIN3A
- mean z-score: -0.67
- z-score, replicate A: -0.49
- z-score, replicate B: -0.58
- z-score, replicate C: -0.93

ACOXL
- mean z-score: 2.33 (active)
- z-score, replicate A: 2.15
- z-score, replicate B: 2.71
- z-score, replicate C: 2.14

Just “mean z-score” (2 entries from above):
KCNIP3	-1.65
SIN3A	-0.67
